The molecules below were run against ricin A chain (RTA) (Ricinus communis, UniProt P02879) (assay: Yeast cell-free in vitro translation assay with luciferase reporter (inhibition of RTA)). Conditions: read-out: IC50 for inhibiting RTA (estimated).

SMILES	IC50
CN(C)c1ccc(/C=N/Nc2cccc(C(=O)O)c2)cc1	10 nM
COC(=O)C1=C(C)N/C(=C/c2ccc(C(=O)O)cc2)C1=O	1 nM
O=C(O)CCCCCN1C(=O)c2ccc(CC(=O)O)cc2C1=O	100 nM

Reference: US20110263540A1, “SMALL-MOLECULE INHIBITORS OF PROTEIN SYNTHESIS INACTIVATING TOXINS” (published 2011)
